Laboratory results taken from paper PMC11856326, “Structure-activity studies of bispyridinium antinicotinics to select candidates to treat soman intoxication as part of a combined therapy” (2025).

Tested on: soman-poisoned guinea pig diaphragm
Test: Diaphragm muscle assay: recovery of tetanic response in soman-poisoned phrenic nerve-hemidiaphragm
Settings: concentration-response curve, n = 4

c1cc[n+](CCCCC[n+]2ccccc2)cc1
recovery of the tetanic response over a broader concentration range: concentration-dependent recovery of the tetanic response up to 100 µM; also recorded: greatest at 100 and 300 µM and declined greatly at 1 mM

Entries after “also recorded” stand apart in the source; their conditions may differ. A number of entries come with more than one value. The list is limited to them. The source may hold further records. Values that stand side by side do not match, cause unknown; they may come from other doses, times, organisms or constructs than stated.
